Reference: EP3370777B1

Biological target: His-tagged eukaryotic Elongation Factor 2 (eEF2) expressed in S. cerevisiae
Assay: cell-based or functional assay

Work on “Lyophilized Exotoxin A from Pseudomonas aeruginosa (Sigma Aldrich) (from UniProt P11439 26-638)” yielded an ADP-ribosylation activity EC50 [µg/µl] (Example 3a, manufacturer's protocol) of 2.65 µg/µL and an ADP-ribosylation activity EC50 [µg/µl] (Example 3b, method of the invention) of 1.22 µg/µL.
